For three compounds, EC50 and IC50 results are on record in ChEMBL document CHEMBL5537111, “Structure and function of SARS-CoV and SARS-CoV-2 main proteases and their inhibition: A comprehensive review” (Eur J Med Chem, 2023).

In experiment [1] the test system is SARS-CoV-2. Nature of the experiment: microbe, parasite or virus in culture. The conditions noted are these: Severe acute respiratory syndrome coronavirus 2, VeroE6/TMPRSS2, 48 h.
Experiment [2] has as its target Replicase polyprotein 1ab (Severe acute respiratory syndrome coronavirus 2, UniProt P0DTD1).
Experiment [3] has as its system SARS-CoV-2. Nature of the experiment: microbe, parasite or virus in culture. The conditions noted are these: Severe acute respiratory syndrome coronavirus 2, Vero C1008, 72 h.

Structures are written as SMILES.

As to `COC[C@@H](NC(=O)C1CCCC(F)(F)C1)C(=O)N[C@H](Cc1ccccc1)C(=O)C(=O)NCc1nccs1` (stereo partly drawn) [SIMNOTRELVIR], the EC50 (in general, the concentration at which the effect is half-maximal) with SARS-CoV-2 [1] came to 384 nM. In other words, the sub-micromolar range. Regarding `CCCC[C@H](NC(=O)[C@@H]1[C@@H]2[C@H](CN1C(=O)[C@@H](NC(=O)NC1(CS(=O)(=O)C(C)(C)C)CCCCC1)C(C)(C)C)C2(C)C)C(=O)C(=O)NC1CC1`, half-maximal inhibition in experiment [2] (IC50) was put at 2200 nM. That is a single-digit micromolar value. On to `OCCN(CCO)c1nc(N2CCCCC2)c2nc(N(CCO)CCO)nc(N3CCCCC3)c2n1` [DIPYRIDAMOLE], for which the EC50 in the experiment with SARS-CoV-2 [3] was found to be 100 nM. In other words, the sub-micromolar range.
